Pooled drug test results. Numbers come from NIAID ChemDB, via PubChem.

Shared fields: tests in culture; organism: Enterococcus faecalis

MIC50, MIC90 and the like: level of inhibition, or share of isolates inhibited. Conditions beyond the fields shown may differ between rows.

compound	strain	read-out	result
CC(=O)NC[C@H]1CN(c2ccc(-c3ccn[nH]3)c(F)c2)C(=O)O1	UC9217	MIC	4 µg/mL
O=C(O)NC[C@H]1CC(c2ccc(-n3cccc3)c(F)c2)=NO1	UC9217	MIC	4 µg/mL
CN(C)c1cc(NC(=O)CNC(C)(C)C)c(O)c2c1C[C@H]1C[C@H]3[C@H](N(C)C)C(=O)C(C(N)=O)=C(O)[C@@]3(O)C(=O)C1=C2O	20 strains (vancomycin-susceptible)	MIC90	0.25 µg/mL
O=C(Nc1cc(C(F)(F)F)cc(C(F)(F)F)c1)NN1CCOCC1	STD44	MIC	>300 µM
CC(=O)NC[C@H]1CN(c2ccc(-c3ccn(CCC#N)n3)c(F)c2)C(=O)O1	UC9217	MIC	8 µg/mL
C=CC(=O)NC[C@H]1CN(c2ccc(C3CCS(=O)(=O)CC3)c(F)c2)C(=O)O1	UC9217	MIC	1 µg/mL
COC(=O)N1CC=C(c2ccc(C3=NO[C@@H](CNC(=O)O)C3)cc2)CC1	UC9217	MIC	4 µg/mL
CC(=O)NC[C@H]1CN(c2ccc(-c3cncs3)c(F)c2)C(=O)O1	UC9217	MIC	0.5 µg/mL
O=C(O)NC[C@H]1CC(c2cc(F)c(N3CCOCC3)c(F)c2)=NO1	UC9217	MIC	4 µg/mL
O=C(CC(=O)Nc1ccc(F)cc1)Nc1ccc(F)cc1	STD44	MIC	>300 µM
CC(=O)NC[C@H]1CN(c2ccc(-c3ccn(C)n3)c(F)c2)C(=O)O1	UC9217	MIC	8 µg/mL
O=C(NNc1ccccn1)Nc1cc(C(F)(F)F)cc(C(F)(F)F)c1	STD44	MIC	>300 µM
CC(=O)NC[C@H]1CN(c2ccc(-c3ccn(CC#N)n3)c(F)c2)C(=O)O1	UC9217	MIC	4 µg/mL
O=C(CCC(=O)Nc1cc(C(F)(F)F)cc(C(F)(F)F)c1)Nc1cc(C(F)(F)F)cc(C(F)(F)F)c1	STD44	MIC	>300 µM
CC(=O)NC[C@H]1CN(c2ccc(-c3cnn(C(C)=O)c3)c(F)c2)C(=O)O1	UC9217	MIC	2 µg/mL
O=C(NNC(=O)Nc1ccccc1C(F)(F)F)Nc1cc(C(F)(F)F)cc(C(F)(F)F)c1	STD44	MIC	>422 µM
O=C(NC[C@H]1CN(c2ccc(C3CCS(=O)(=O)CC3)c(F)c2)C(=O)O1)C1CC1	UC9217	MIC	4 µg/mL
O=C(CC(=O)Nc1cccc(C(F)(F)F)c1)Nc1cccc(C(F)(F)F)c1	STD44	MIC	>300 µM
CC(=O)NC[C@H]1CN(c2ccc(-c3noc(C)n3)c(F)c2)C(=O)O1	UC9217	MIC	>16 µg/mL
O=C(Nc1cccc(C2=NCCN2)c1)Nc1cccc(C(F)(F)F)c1	STD44	MIC	75 µM
O=C(O)NC[C@H]1CC(c2ccc(N3CCN(C(=O)CO)CC3)c(F)c2)=NO1	UC9217	MIC	4 µg/mL

3 of the rows above, restated:

{"compound": "COC(=O)N1CC=C(c2ccc(C3=NO[C@@H](CNC(=O)O)C3)cc2)CC1", "strain": "UC9217", "read-out": "MIC", "result": "4 µg/mL"}
{"compound": "CC(=O)NC[C@H]1CN(c2ccc(-c3cncs3)c(F)c2)C(=O)O1", "strain": "UC9217", "read-out": "MIC", "result": "0.5 µg/mL"}
{"compound": "CC(=O)NC[C@H]1CN(c2ccc(-c3ccn[nH]3)c(F)c2)C(=O)O1", "strain": "UC9217", "read-out": "MIC", "result": "4 µg/mL"}